SMILES strings stand for the structures. Values after ≈ are worked out from the molar mass of the structure shown.

The values below come from publication PMC6104695 (Virulence, 2017).

The test system of the experiment is B. anthracis Sterne vegetative bacteria. The note with it: 24 h.

For orientation: MIC means the smallest concentration in the dilution series that meets the test's criterion for growth inhibition. Take `CC[C@H](C)[C@H](NC(=O)[C@@H](NC(=O)[C@H](CCCCN)NC(=O)[C@@H]1CCCN1C(=O)[C@H](CCCCN)NC(=O)[C@H](CCCCN)NC(=O)[C@H](Cc1ccccc1)NC(=O)[C@H](Cc1ccccc1)NC(=O)[C@H](CCCCN)NC(=O)[C@H](CCCCN)NC(=O)[C@H](C)NC(=O)[C@H](CCCNC(=N)N)NC(=O)[C@H](CCCCN)NC(=O)[C@H](CCCCN)NC(=O)[C@@H](NC(=O)[C@H](CO)NC(=O)[C@H](CC(N)=O)NC(=O)[C@H](CCCCN)NC(=O)[C@H](CC(C)C)NC(=O)[C@H](CCCCN)NC(=O)[C@H](CCCCN)NC(=O)[C@H](Cc1ccccc1)NC(=O)[C@H](Cc1ccccc1)NC(=O)[C@H](CCCCN)NC(=O)[C@H](CCCCN)NC(=O)[C@H](Cc1ccccc1)NC(=O)[C@H](CCCNC(=N)N)NC(=O)[C@@H](N)CCCCN)C(C)C)C(C)C)C(=O)NCC(=O)N[C@H](C(=O)N[C@H](C(=O)N[C@@H](Cc1ccccc1)C(=O)N1CCC[C@H]1C(=O)N[C@@H](Cc1ccccc1)C(=O)O)[C@@H](C)O)C(C)C` [NA-CATH]: the MIC is given as 3.83 µM (≈ 16 µg/mL).
